PubChem BioAssay AID504761 | Drosophila RNAi Screening Center | 2011
Test: 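Insect host genes that dengue virus relies on to spread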 (primary screen). Cells: D.Mel-2 cells from Drosophila. Reagent: long dsRNA against Drosophila genes. Conditions: infection with dengue virus type 2; dose and infection time not stated. Detection: 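Cells stained for dengue envelope protein and imaged; percent of infected cells per well on duplicate plates, ranked by infection, with stained nuclei counted for cell number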. Scale: infection score: higher = more virus-infected cells; cell count: higher = more cells in the well. Call rule: 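Low infection ranks in the two replicates (chance level up to 0.065) followed by a retest with a 1.5-fold or larger significant decrease, p below 0.05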. Calls: active = confirmed: knock-down lowers infection; inactive = not picked or not confirmed.
In all, the deposit lists about 22,000 reagents; below is a random part of those with a known target gene and a result. Of all reagents, 116 (0.52%) got an active call. 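Calls depend on retest data that are not deposited; infection was ranked per plate without normalising between plates; the unit of the infection score is not given.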 Raw values are not corrected between plates. The numbers tell different reagents against one gene apart. A plus sign joins genes that one reagent is predicted to hit. Not given: the amount of reagent, the time to read-out.

no.	Gene	reagent	infection score, replicate 1	infection score, replicate 2	cell count, replicate 1	cell count, replicate 2	call
1	Ufc1 (GeneID 36762)	1	10.1	10.8	1505	1943	inactive
2	Ubr3 (GeneID 31713)	1	12.3	20.5	6475	6092	inactive
3	Ubr3 (GeneID 31713)	2	3.54	1.8	6075	5945	inactive
4	Ubr3 (GeneID 31713)	3	33.5	22.2	6447	6477	inactive
5	Ubr3 (GeneID 31713)	4	16.8	13.8	3254	5636	inactive
6	CG12016 + Dpm2	1	13	11.6	6004	2591	inactive
7	CG12016 + Dpm2	2	2.44	3.48	7331	7005	inactive
8	Octalpha2R (GeneID 42258)	1	9.39	4.91	6251	5500	inactive
9	Octalpha2R (GeneID 42258)	2	0.76	0.37	6073	6258	inactive
10	Nlp (GeneID 43560)	1	5.03	14.4	6580	6632	inactive
11	Nlp (GeneID 43560)	2	1.87	1.31	6485	6199	inactive
12	CG13398 (GeneID 34169)	1	2.87	5.26	6387	1540	inactive
13	CG12607 (GeneID 38547)	1	1.41	0.34	6435	5363	inactive
14	CG10841 (GeneID 41665)	1	8.21	7.59	5773	3954	inactive
15	CG10841 (GeneID 41665)	2	6.24	15.2	1025	6898	inactive
16	dmt (GeneID 41180)	1	2.42	18.3	4010	3482	inactive
17	snu (GeneID 43391)	1	2.86	2.53	5172	5888	inactive
18	CG15719 (GeneID 32249)	1	3.03	10.2	5937	5920	inactive
19	Csas (GeneID 317923)	1	0.6	0.98	5968	6941	inactive
20	CSN6 (GeneID 42661)	1			425	337	inactive
21	CG6689 (GeneID 41345)	1	23.6	13.3	5237	5710	inactive
22	CG6689 (GeneID 41345)	2	10.9	8.44	4605	4311	inactive
23	CG9444 (GeneID 41175)	1	3.88	4.57	6088	6305	inactive
24	Xbp1 (GeneID 44226)	1	5.75	8.58	6503	5839	inactive
25	Xbp1 (GeneID 44226)	2	1.59	2.76	5656	5975	inactive
26	CG31910 (GeneID 319021)	1	26	11.9	4590	7053	inactive
27	CG13085 (GeneID 35219)	1	3.47	3.36	5958	6674	inactive
28	CG13085 (GeneID 35219)	2	7.57	4.82	6487	6431	inactive
29	nAChRalpha2 (GeneID 42919)	1	38.2	4.22	5545	6539	inactive
30	nAChRalpha2 (GeneID 42919)	2	2.36	0.88	5639	6012	inactive
31	CG6000 (GeneID 42851)	1	3.49	8.37	6339	1410	inactive
32	NdufA3 (GeneID 50405)	1	9.16	19.4	5971	5750	inactive
33	CG14022 (GeneID 33763)	1	2.99	19.2	6745	5650	inactive
34	CG14022 (GeneID 33763)	2	0.86	11.7	6479	6691	inactive
35	CG15578 (GeneID 50379)	1	8.65	8.52	6355	2841	inactive
36	Sox102F (GeneID 43844)	1	2.48	0.9	6456	6474	inactive
37	Sox102F (GeneID 43844)	2	1.15	2.6	6287	6421	inactive
38	SerT (GeneID 37895)	1	2.51	5.23	6763	1816	inactive
39	SerT (GeneID 37895)	2	14.9	7.11	3470	1561	inactive

Limited to “cell count, replicate 2”, for 6 of the entries above:
snu (GeneID 43391): 5888
CG15719 (GeneID 32249): 5920
Csas (GeneID 317923): 6941
CSN6 (GeneID 42661): 337
CG6689 (GeneID 41345) #1: 5710
CG6689 (GeneID 41345) #2: 4311
